The record followed here is paper PMC9146215, “Design of D-Amino Acids SARS-CoV-2 Main Protease Inhibitors Using the Cationic Peptide from Rattlesnake Venom as a Scaffold” (Pharmaceuticals, 2022).

Structures are written as SMILES. Non-standard residues stand in square brackets, D forms with d. Residues, ends and D or L forms follow the SMILES beside them.

The nature of the data set: Redox cycling (H2O2 generation, HRP-phenol red) colourimetric assay. The conditions noted are these: 0-60 µM peptide, 1 mM TCEP, 30 min RT, absorbance 610 nm, triplicate.

Turning to `COC(=O)[C@@H](CCCCN)NC(=O)[C@@H](CCCCN)NC(=O)[C@@H](CS)NC(=O)[C@@H](CS)NC(=O)[C@@H](CCCCN)NC(=O)[C@@H](Cc1c[nH]c2ccccc12)NC(=O)[C@@H](CCCNC(=N)N)NC(=O)[C@@H](Cc1c[nH]c2ccccc12)NC(=O)[C@@H](CCCNC(=N)N)NC(=O)[C@@H](CS)NC(=O)[C@@H](CC(=O)O)NC(=O)[C@@H](CCSC)NC(=O)[C@@H](CCCCN)NC(C)=O` [D-CDP1] (Ac-[dK][dM][dD][dC][dR][dW][dR][dW][dK][dC][dC][dK][dK]-OMe), the “H2O2 generation (redox cycling compound)” value was “do not produce H2O2”.

Turning to `COC(=O)[C@H](CCCCN)NC(=O)[C@H](CCCCN)NC(=O)[C@H](CS)NC(=O)[C@H](CS)NC(=O)[C@H](CCCCN)NC(=O)[C@H](Cc1c[nH]c2ccccc12)NC(=O)[C@H](CCCNC(=N)N)NC(=O)[C@H](Cc1c[nH]c2ccccc12)NC(=O)[C@H](CCCNC(=N)N)NC(=O)[C@H](CS)NC(=O)[C@H](CC(=O)O)NC(=O)[C@H](CCSC)NC(=O)[C@H](CCCCN)NC(C)=O` [L-CDP1] (Ac-KMDCRWRWKCCKK-OMe), the “H2O2 generation (redox cycling compound)” value was “do not produce H2O2”.
